In patent US20240109955A1 (published 2024):

B1: MX1024 (bispecific antibody)
chain: EIVMTQSPAILSVSPGERATLSCRASQSVAINLAWYQQKPGQAPRLLIYAASSRATGIPGRFSGSGSETNFTLTISSLQSGDFAVYYCQQYITWPPSYTFGQGTKLEIKGGSSGDTVMTQSPLSLPVTPGEPASISCRSSQSLLNSNGYNYLDWYVQKPGQSPQLLIYLGSNRASGVPDRFSGSGSGTDFTLKISRVEAEDVGVYYCMQPLQTPLFTFGPGTKVEIKGGGGSGGSGSGGGGSASGSGQVTLRESGPALVKPTQTLTLTCTFSGFSLSTRGVCVSWIRQPPGKALEWLAFIDWDDDKYYNTSLKTRLTISKDTSKNQVVLTMTNVHPVDTATYYCARISSHHGSSWCTTFDYWGQGALVTVSAGGSSGEVQLVESGGALIQPGGSLRLSCAASGIIVSANYMSWVRQAPGKGLEWVSVIYSGGSTFYADSVKGRFTISRDNSKNTLYLEMNSLRAEDTAVYYCARDAPILGVSDWGQGTLVTVSSASGGSGDKTHTCPPCPAPELLGGPSVFLFPPKPKDTLMISRTPEVTCVVVDVSHEDPEVKFNWYVDGVEVHNAKTKPREEQYNSYVVSVLTVLHQDWLNGKEYKCKVSNKALPAPIEKTISKAKGQPREPQVYTLPPSRDELTKNQVSLTCLVKGFYPSDIAVEWESNGQPENNYKTTPPVLDSDGSFFKKLTVDKSRWQQGNVFSCSVLHEALHSHYTQKSLSLSPG
B2: MX1047 (bispecific antibody)
chain 1: DTVMTQSPLSLPVTPGEPASISCRSSQSLLNSNGYNYLDWYVQKPGQSPQLLIYLGSNRASGVPDRFSGSGSGTDFTLKISRVEAEDVGVYYCMQPLQTPLFTFGPGTKVEIKGGSSGEIVLTQSPGTLSLSPGERATLSCRASQSVSSSYLAWYQQKPGQAPRLLIYSASSRATGIPDRFSGSGSGTDFTLTISRLEPEDFAVYFCQQYVGLTGWTFGQGTKVEIKGGGGSGGSGSGGGGSASGSGQMQLVQSGPEVKKPGTSVKVSCKASGFTFTSSAVQWVRQRQRLEWIGWIVVGSGNTNYAQKFQERVTITRDMSTSTAYMELSSLRSEDTAVYYCAAPNCSNVVCYDGFDIWGQGTMVTVSSGGSSGQVTLRESGPALVKPTQTLTLTCTFSGFSLSTRGVCVSWIRQPPGKALEWLAFIDWDDDKYYNTSLKTRLTISKDTSKNQVVLTMTNVHPVDTATYYCARISSHHGSSWCTTFDYWGQGALVTVSAASGGSGDKTHTCPPCPAPELLGGPSVFLFPPKPKDTLMISRTPEVTCVVVDVSHEDPEVKFNWYVDGVEVHNAKTKPREEQYNSYVVSVLTVLHQDWLNGKEYKCKVSNKALPAPIEKTISKAKGQPREPQVYTLPPSRDELTKNQVSLTCLVKGFYPSDIAVEWESNGQPENNYKTTPPVLDSDGSFFKKLTVDKSRWQQGNVFSCSVLHEALHSHYTQKSLSLSPG
chain 2: EIVLTQSPGTLSLSPGERATLSCRASQSVSSSYLAWYQQKPGQAPRLLIYSASSRATGIPDRFSGSGSGTDFTLTISRLEPEDFAVYFCQQYVGLTGWTFGQGTKVEIKGGSSGQTVVTQEPSFSVSPGGTVTLTCGLSSGSVSTAYFPSWYQQTPGQAPRTLIYGTNTRSSGVPDRFSGSILGNKAALTITGAQADDESDYYCVLYMGRGIVVFGGGTKLTVLGGGGSGGSGSGGGGSASGSGQVQLVESGGGVVQPGRSLRLSCAASGFTLSSYGMHWVRQAPGKGLEWVAVISYDGSNKYYVDSVKGRFTISRDNSKNTLYLQMNSLRAEDTAVYYCRWAYWELLPDYYYGMDVWGQGTTVTVSSGGSSGQMQLVQSGPEVKKPGTSVKVSCKASGFTFTSSAVQWVRQRQRLEWIGWIVVGSGNTNYAQKFQERVTITRDMSTSTAYMELSSLRSEDTAVYYCAAPNCSNVVCYDGFDIWGQGTMVTVSSASGGSGDKTHTCPPCPAPELLGGPSVFLFPPKPKDTLMISRTPEVTCVVVDVSHEDPEVKFNWYVDGVEVHNAKTKPREEQYNSYVVSVLTVLHQDWLNGKEYKCKVSNKALPAPIEKTISKAKGQPREPQVYTLPPSRDELTKNQVSLTCLVKGFYPSDIAVEWESNGQPENNYKTTPPVLDSDGSFFKKLTVDKSRWQQGNVFSCSVLHEALHSHYTQKSLSLSPG

Tests used:
Experiment in all cases: cell-based or functional assay
[1] = molecular target: SARS-CoV-2 Omicron variant B.1.1.529 spike protein (SARS-CoV-2)
[2] = molecular target: SARS-CoV-2 Delta variant spike protein (SARS-CoV-2)
[3] = molecular target: SARS-CoV-2 Omicron variant BF.7 spike protein (SARS-CoV-2)
[4] = molecular target: SARS-CoV-2 Omicron variant XBB spike protein (SARS-CoV-2)
[5] = molecular target: SARS-CoV-2 Omicron variant BQ.1.1 spike protein (SARS-CoV-2)
[6] = molecular target: SARS-CoV-2 Omicron variant BQ.1 spike protein (SARS-CoV-2)
[7] = molecular target: SARS-CoV-2 Omicron variant B.1.1.529 spike protein (SARS-CoV-2, UniProt P0DTC2 14-1273)

Binder | IC50, pseudovirus neutralization [1] [µg/mL] | IC80, pseudovirus neutralization [1] [µg/mL] | IC50, pseudovirus neutralization [2] [µg/mL] | IC80, pseudovirus neutralization [2] [µg/mL] | IC50, pseudovirus neutralization [3] [µg/mL] | IC80, pseudovirus neutralization [3] [µg/mL] | IC50, pseudovirus neutralization [4] [µg/mL] | IC80, pseudovirus neutralization [4] [µg/mL] | IC50, pseudovirus neutralization [5] [µg/mL] | IC80, pseudovirus neutralization [5] [µg/mL] | IC50, pseudovirus neutralization [6] [µg/mL] | IC80, pseudovirus neutralization [6] [µg/mL] | IC50, pseudovirus neutralization [7] [µg/mL] | IC80, pseudovirus neutralization [7] [µg/mL]
B1 | 0.00163 | 0.00544 | 0.0329 | 0.0371 | 0.00312 | 0.0125 | 0.0105 | 0.0129 | 0.0121 | 0.0169 | 0.0176 | 0.0371 | – | –
B2 | – | – | – | – | – | – | – | – | – | – | – | – | 0.00404 | 0.0046
